Values of other authors in US7846722B2 (priority 2001, dated 2010).

Chains of the proteins cited; added tags and fusions are not shown. Lines headed by an entry give the natural chain unless they say otherwise; changes in a name come on top.
UniProt P0DPI0: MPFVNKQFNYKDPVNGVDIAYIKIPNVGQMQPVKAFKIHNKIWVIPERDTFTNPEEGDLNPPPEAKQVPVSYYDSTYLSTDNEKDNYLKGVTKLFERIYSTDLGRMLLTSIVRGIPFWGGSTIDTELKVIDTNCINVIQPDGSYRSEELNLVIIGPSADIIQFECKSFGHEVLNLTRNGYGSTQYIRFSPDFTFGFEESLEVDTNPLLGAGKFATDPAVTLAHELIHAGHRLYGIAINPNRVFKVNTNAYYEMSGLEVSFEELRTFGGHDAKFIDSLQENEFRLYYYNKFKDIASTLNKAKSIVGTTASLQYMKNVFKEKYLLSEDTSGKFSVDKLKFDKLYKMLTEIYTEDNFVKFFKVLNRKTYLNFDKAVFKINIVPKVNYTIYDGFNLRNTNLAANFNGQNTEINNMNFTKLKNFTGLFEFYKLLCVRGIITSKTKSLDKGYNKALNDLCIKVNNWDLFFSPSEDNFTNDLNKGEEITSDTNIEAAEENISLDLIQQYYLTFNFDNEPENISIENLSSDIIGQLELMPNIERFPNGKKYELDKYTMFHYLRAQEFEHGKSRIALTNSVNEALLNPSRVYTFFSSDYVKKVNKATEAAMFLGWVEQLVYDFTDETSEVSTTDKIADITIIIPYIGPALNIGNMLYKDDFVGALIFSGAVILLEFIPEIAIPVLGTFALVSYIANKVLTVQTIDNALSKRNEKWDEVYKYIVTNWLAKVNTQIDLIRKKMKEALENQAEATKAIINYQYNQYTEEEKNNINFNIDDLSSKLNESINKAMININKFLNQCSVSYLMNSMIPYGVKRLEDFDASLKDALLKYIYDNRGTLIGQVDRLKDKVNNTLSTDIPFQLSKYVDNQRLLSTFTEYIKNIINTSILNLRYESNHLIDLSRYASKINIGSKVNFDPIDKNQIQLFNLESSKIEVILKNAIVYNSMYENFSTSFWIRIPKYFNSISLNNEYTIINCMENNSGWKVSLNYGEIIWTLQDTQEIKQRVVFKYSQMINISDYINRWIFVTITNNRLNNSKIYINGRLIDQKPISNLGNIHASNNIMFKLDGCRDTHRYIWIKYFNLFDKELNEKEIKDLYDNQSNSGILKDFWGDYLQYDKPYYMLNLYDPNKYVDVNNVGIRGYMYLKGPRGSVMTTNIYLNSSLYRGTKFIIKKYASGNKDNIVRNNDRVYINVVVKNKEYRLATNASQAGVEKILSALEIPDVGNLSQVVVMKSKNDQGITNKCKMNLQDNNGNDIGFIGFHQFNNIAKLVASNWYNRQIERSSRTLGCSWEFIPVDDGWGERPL

Biological target: BoNT/A (Clostridium botulinum, UniProt P0DPI0)
Conditions: Initial hydrolysis rates relative to peptide [1-17] (residues 187 to 203 of human SNAP-25); peptide concentrations 1.0 mM; cited from earlier work

Row | Sequence | Relative Rate
1 | SNKTRIDEAAQRATKML | 0.06
2 | SNKTRIDEANQRATK | 0.03
